Data published in patent US8916540B2, “Antibiotic compositions and related screening methods” (Academia Sinica, priority 2008, dated 2014).

Chains of the proteins cited; added tags and fusions are not shown.
UniProt O25319, whole entry I22V/I24V/I79V/M17V/S417T/V16I/D336E/D508E/E323D/E406V/F125L/G242S/G44S/I101V: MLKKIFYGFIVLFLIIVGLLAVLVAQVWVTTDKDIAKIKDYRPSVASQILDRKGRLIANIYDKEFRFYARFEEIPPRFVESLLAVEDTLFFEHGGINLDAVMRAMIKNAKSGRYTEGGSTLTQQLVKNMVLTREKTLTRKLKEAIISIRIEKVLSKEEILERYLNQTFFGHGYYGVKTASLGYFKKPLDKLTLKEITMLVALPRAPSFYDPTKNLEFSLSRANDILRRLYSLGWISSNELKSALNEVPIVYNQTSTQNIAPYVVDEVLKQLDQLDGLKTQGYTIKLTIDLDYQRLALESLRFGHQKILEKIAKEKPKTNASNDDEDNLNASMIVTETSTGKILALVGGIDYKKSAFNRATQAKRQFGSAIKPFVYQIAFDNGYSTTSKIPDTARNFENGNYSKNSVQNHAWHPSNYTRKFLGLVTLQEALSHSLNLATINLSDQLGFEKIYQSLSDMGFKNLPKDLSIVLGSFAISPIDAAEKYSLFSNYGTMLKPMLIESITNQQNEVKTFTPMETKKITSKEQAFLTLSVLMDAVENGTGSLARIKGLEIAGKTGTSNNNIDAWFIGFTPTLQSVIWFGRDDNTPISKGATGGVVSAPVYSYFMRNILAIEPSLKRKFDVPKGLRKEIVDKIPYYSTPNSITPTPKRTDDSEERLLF

Target: T1, H. pylori PBP1a (Helicobacter pylori, UniProt O25319, /I22V/I24V/I79V/M17V/S417T/V16I, form not given)
T1 sequence (O25319 1-659 V16I/M17V/I22V/I24V/G44S/I79V/I101V/F125L/G242S/E323D/D336E/E406V/S417T/D508E): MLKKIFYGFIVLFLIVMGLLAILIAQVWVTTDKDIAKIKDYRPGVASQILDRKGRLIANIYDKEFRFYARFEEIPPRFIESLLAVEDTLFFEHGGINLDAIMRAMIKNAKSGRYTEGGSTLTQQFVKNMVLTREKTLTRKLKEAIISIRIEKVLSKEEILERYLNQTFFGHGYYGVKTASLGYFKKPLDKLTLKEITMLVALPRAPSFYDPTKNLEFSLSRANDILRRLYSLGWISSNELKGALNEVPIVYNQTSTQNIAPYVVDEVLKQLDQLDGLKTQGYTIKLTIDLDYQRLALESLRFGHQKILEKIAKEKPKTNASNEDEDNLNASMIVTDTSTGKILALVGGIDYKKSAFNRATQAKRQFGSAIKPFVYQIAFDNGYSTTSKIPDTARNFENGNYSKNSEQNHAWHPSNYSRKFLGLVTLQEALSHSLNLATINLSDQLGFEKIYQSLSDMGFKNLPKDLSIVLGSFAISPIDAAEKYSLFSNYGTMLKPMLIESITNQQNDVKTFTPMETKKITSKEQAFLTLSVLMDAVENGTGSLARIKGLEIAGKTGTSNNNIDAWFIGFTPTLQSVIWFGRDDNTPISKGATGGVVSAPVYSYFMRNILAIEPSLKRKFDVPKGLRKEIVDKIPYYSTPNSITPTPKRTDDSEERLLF
Assay type: binding
Method: Fluorescence anisotropy measurements were carried out in triplicates in the wells of 384-well plates using a laser fluorimetry equipped with a 488 nm laser (IsoCyte, Blueshift Biotech, Inc., Sunnyvale, Calif., USA). Various buffers, salts, pH values, and divalent cations (Ca^++, Mg^++, Co^++) were optimized for fluorescence anisotropy measurements. […] The scanning focus was above the plate bottom to avoid detection interferences. Data analysis was performed with the proprietary software, BlueImage (Blueshift Biotech Inc). Fluorescence anisotropy values (A) were calculated using the equation: A=(/∥−G*/⊥)/(/∥+2G*/⊥), where /∥ is the fluorescence intensity of emitted light parallel to excitation, /⊥ is the fluorescence intensity of emitted light perpendicular to excitation, and G is the […] that corrects for instrument bias. The G factor is experimentally determined for each run using the probe-only well as the basal an isotropy.
For the development of an assay for inhibitor screening, F-Moe was pre-incubated with H. pylori PBP1a and then competed with unlabeled Moe A at various concentrations.
For displacement assay, the initial condition contained 40 μl of 100 nM F-Moe, 10 μg/ml H. pylori PBP1a in 10 mM Tris, pH 8.0, 100 mM NaCl. Aliquots of compound stock solution were added and the anisotropy was monitored after 5 minutes of equilibration. […]

Substance: Moenomycin A [Compound 1]
- IC50 (read-out: IC50 (fluorescence anisotropy assay, displacement of F-Moe), 100 nM F-Moe, 10 μg/ml H. pylori PBP1a, 10 mM Tris pH 8.0, 100 mM NaCl): 360 nM
- Ki (read-out: KI (inhibition constant), displacement of F-Moe pre-incubated with H. pylori PBP1a): 470 ± 100 nM
